Measured values from several laboratories, pooled; numbers as filed in NIAID ChemDB.

All rows: whole-cell or culture tests; agent: HIV-2; method: cytopathic effect; read-out: EC50

An empty or dashed field is not shown.

structure	strain or isolate	cell line	value
CC(=O)Nc1nc2c(ncn2Cc2cn(COCCOC(C)=O)nn2)c(=O)[nH]1	ROD	MT-4	>100 µg/mL
O=c1[nH]c(=O)n(C[C@H]2CCC[C@H]2CO)cc1I		CEM	>100 µg/mL
O=C(O)CN(CCOCCOCCN1CC2c3cc4c5c6c3-c3c(cc7c8c3C63CN(CCOCCOCCN(CC(=O)O)CC(=O)O)CC36c3c-5c(cc5ccc9cc(c-8c6c9c35)C7)C4)C2C1)CC(=O)O	ROD	CEM	>4 µM
CC1(C)[C@@H](CCO)C[C@H]1n1cnc2c(N)nc(N)nc21		MT-4	>250 µg/mL
[N-]=[N+]=N[C@H]1C[C@H](n2cc(Cl)c(=O)[nH]c2=O)O[C@@H]1CO	LAV-2	MT-4	0.45 µM
CCn1nc(Cc2n[nH]c(=S)o2)nc1C	ROD	MT-4	>63.4 µg/mL
Cc1cn([C@H]2C=C[C@@H](CO)O2)c(=O)[nH]c1=O	LAV-2	MT-4	0.09 µM
CC[Si]1(C(C)C)O[C@H]2[C@@H](O)[C@H](c3ccccc3)O[C@@H]2CO[Si](C(C)C)(C(C)C)O1	ROD	CEM	>4 µg/mL
CC1(CO)CCC(Cn2cnc3c(=O)[nH]c(N)nc32)C1(C)C		CEM	>100 µg/mL
CC(=O)OCCOCn1cc(Cn2cc(Br)c(=O)[nH]c2=O)nn1	ROD	MT-4	>100 µg/mL
CC1(C)[C@@H](CCO)C[C@H]1n1nnc2c(Cl)nc(N)nc21		MT-4	>200 µg/mL
CC(=O)OCCOCn1cc(Cn2cc(F)c(=O)[nH]c2=O)nn1	ROD	MT-4	>100 µg/mL
O=c1[nH]c(=O)n([C@H]2CCC[C@@H]2CO)cc1I		CEM	>100 µg/mL
COc1ccc(-c2nnc(-c3ccc(N)cc3)o2)cc1	ROD	MT-4	>116 µg/mL
Cc1nc2c(N)ncnc2n1[C@H]1CC[C@@H](CO)O1		CEM	>100 µg/mL
Cn1c([S-])nc2nc(-c3ccccc3)c(-c3ccccc3)nc2c1=O.[Cl][Pt+2][Cl]	ROD	MT-4	>2.23 µg/mL
Cc1ccc(C(C)S(=O)(=O)c2c(C)ccc[n+]2[O-])c(C)c1	EHO	CEM	>100 µg/mL
O=c1ccn([C@H]2CCC[C@@H]2CO)c(=O)[nH]1		CEM	>100 µg/mL
CCn1nc(CC(=O)N/N=C/c2ccco2)nc1C	ROD	MT-4	>89 µg/mL
CSCO[C@]1(C)COC(C)(CC(=O)OC[C@@H]2C=C[C@H](n3cnc4c(N)ncnc43)O2)C1		CEM + CEM/O	40 µM
CC1(CO)CCC(Cn2cnc3c(Cl)nc(N)nc32)C1(C)C		CEM	>4 µg/mL
C#C[C@@H](O)C1=C[C@@H](n2cnc3c(N)ncnc32)[C@H](O)[C@@H]1O		CEM	>40 µg/mL
CC1(C)[C@@H](CCO)C[C@H]1n1nnc2c(=O)[nH]cnc21		CEM	>20 µg/mL
Nc1ncnc2c1ncn2C[C@H](CF)OCP(=O)(O)O	LAV-2	MT-4	211 µM
CC1(CO)CCC(Cn2nnc3c(=O)[nH]c(N)nc32)C1(C)C		CEM	≥100 µg/mL
Nc1nc2c(ncn2C[C@@H](CF)OCP(=O)(O)O)c(=O)[nH]1	LAV-2	MT-4	3.8 µM
Cc1cn([C@H]2C=C[C@@H](CO)O2)c(=O)[nH]c1=O		CEM + CEM TK-	55 µM
O=S(=O)(Cc1c(Cl)c(Cl)c(Cl)c(Cl)c1Cl)c1cccc[n+]1[O-]	ROD	CEM	1 µg/mL
C=C1CN(S(=O)(=O)c2ccc(C)cc2)CCCN(Cc2ccccc2)CCCN(S(=O)(=O)c2ccc(C)cc2)C1	ROD	MT-4	0.2 µM
Cc1ccc(-c2nnc(-c3ccc(NS(=O)(=O)c4ccc(C)cc4)cc3)o2)cc1	ROD	MT-4	>119 µg/mL
CC1(C)[C@@H](CCO)C[C@H]1n1cnc2c(N)ncnc21		MT-4	>250 µg/mL
Cc1cn(CCCC(O)CF)c(=O)[nH]c1=O	ROD	CEM	>100 µg/mL
Cc1cc(C)c(CS(=O)c2cccc[n+]2[O-])c(C)c1	ROD	CEM	1.5 µg/mL
CCn1nc(-c2ccc(Cn3ccc4ccccc43)cc2)nc1C	ROD	MT-4	>0.436 µg/mL
Nc1nc2c(ncn2C[C@@H](CO)OCP(=O)(O)O)c(=O)[nH]1	LAV-2	MT-4	38 µM
CC[C@H](O)C1=C[C@@H](n2cnc3c(N)ncnc32)[C@H](O)[C@@H]1O		CEM	>200 µg/mL
CO[C@@H]1[C@H](O)[C@@H](CO)O[C@H]1c1ccccc1	ROD	CEM	>100 µg/mL
Cc1ccc(C)c(C(C)S(=O)(=O)c2c(C)ccc[n+]2[O-])c1	EHO	CEM	>20 µg/mL
S=c1[nH]nc(Cc2nc3n(n2)CCCCC3)o1	ROD	MT-4	>68 µg/mL
CC[C@@H](NS(=O)(=O)c1ccc(OC)cc1)c1n[nH]c(=S)o1	ROD	MT-4	>125 µg/mL
O=c1[nH]c(=O)n(Cc2cn(COCCO)nn2)cc1I	ROD	MT-4	>100 µg/mL
Nc1ccn(CCCC(O)CF)c(=O)n1	ROD	CEM	>100 µg/mL
CC[C@@H](O)C1=C[C@@H](n2cnc3c(N)ncnc32)[C@H](O)[C@@H]1O		CEM	>200 µg/mL
Nc1nc2c(ncn2C[C@H](CF)OCP(=O)(O)O)c(=O)[nH]1	LAV-2	MT-4	5.7 µM
Cc1cn(Cc2cn(COCCO)nn2)c(=O)[nH]c1=O	ROD	MT-4	>100 µg/mL

6 of the rows above, restated:

{"structure": "CC1(CO)CCC(Cn2cnc3c(Cl)nc(N)nc32)C1(C)C", "cell line": "CEM", "value": ">4 µg/mL"}
{"structure": "O=c1[nH]c(=O)n(C[C@H]2CCC[C@H]2CO)cc1I", "cell line": "CEM", "value": ">100 µg/mL"}
{"structure": "Cc1ccc(C)c(C(C)S(=O)(=O)c2c(C)ccc[n+]2[O-])c1", "strain or isolate": "EHO", "cell line": "CEM", "value": ">20 µg/mL"}
{"structure": "CC1(CO)CCC(Cn2cnc3c(=O)[nH]c(N)nc32)C1(C)C", "cell line": "CEM", "value": ">100 µg/mL"}
{"structure": "CC1(C)[C@@H](CCO)C[C@H]1n1cnc2c(N)nc(N)nc21", "cell line": "MT-4", "value": ">250 µg/mL"}
{"structure": "CCn1nc(CC(=O)N/N=C/c2ccco2)nc1C", "strain or isolate": "ROD", "cell line": "MT-4", "value": ">89 µg/mL"}

Conditions beyond the fields shown may differ between rows. ECn: concentration that inhibits the pathogen or its effect by n%.